Data taken from patent publication US11850237B2, “Compounds and methods for treating influenza” (priority 2009, dated 2023).

tested on: H1N1 A/PR/8/34 (PR8); type: cell-based, influenza A virus; settings: PR8, MDCK cells

Structure (SMILES) | S.I. LD50/EC50
CC(=O)Oc1ccccc1C(=O)Nc1ncc([N+](=O)[O-])s1 [Compound 1, nitazoxanide] | >50
O=C(Nc1ncc([N+](=O)[O-])s1)c1ccccc1O [Compound 2, tizoxanide] | >50
O=C(Nc1ncc([N+](=O)[O-])s1)c1ccccc1[O-].[Na+] [Compound 3, tizoxanide sodium salt] | >125
CC(C)COC(=O)Oc1ccccc1C(=O)Nc1ncc([N+](=O)[O-])s1 [Compound 14] | 20
CCOC(=O)Oc1ccccc1C(=O)Nc1ncc([N+](=O)[O-])s1 [Compound 15] | 30
CCC(=O)Oc1ccccc1C(=O)Nc1ncc([N+](=O)[O-])s1 [Compound 16] | 20
O=C(Oc1ccccc1C(=O)Nc1ncc([N+](=O)[O-])s1)c1ccccc1 [Compound 17] | >16.7
CC(=O)Oc1ccccc1C(=O)Nc1nc(S(C)(=O)=O)cs1 [Compound 27] | >500
CS(=O)(=O)c1csc(NC(=O)c2ccccc2O)n1 [Compound 28] | >500
CC(=O)Oc1ccccc1C(=O)Nc1nc([S+](C)[O-])cs1 (stereo not drawn) [Compound 29] | >5
C[S+]([O-])c1csc(NC(=O)c2ccccc2O)n1 (stereo not drawn) [Compound 30] | >5
CC(=O)Oc1ccccc1C(=O)Nc1nc(S(=O)(=O)C(C)C)cs1 [Compound 36] | >50
CC(C)S(=O)(=O)c1csc(NC(=O)c2ccccc2O)n1 [Compound 37] | >83.3
CC(=O)Oc1ccccc1C(=O)Nc1nc(S(=O)(=O)C2CCCCC2)cs1 [Compound 38] | >2
O=C(Nc1nc(S(=O)(=O)C2CCCCC2)cs1)c1ccccc1O [Compound 39] | >5
CC(=O)Oc1ccccc1C(=O)Nc1ncc(S(=O)(=O)c2ccc([N+](=O)[O-])cc2)s1 [Compound 51] | 9
CC(=O)Oc1ccccc1C(=O)Nc1ncc(S(C)(=O)=O)s1 [Compound 52] | >1.6
CS(=O)(=O)c1cnc(NC(=O)c2ccccc2O)s1 [Compound 53] | >5
CS(=O)(=O)c1cnc(NC(=O)c2ccccc2[O-])s1.[Na+] [Compound 54] | >5
CCCCS(=O)(=O)c1cnc(NC(=O)c2ccccc2OC(C)=O)s1 [Compound 59] | >10
CC(=O)Oc1ccc(C(=O)Nc2ncc(S(C)(=O)=O)s2)cc1 [Compound 63] | >5
